## Primary screen of a compound library

Measurements from “University of Dundee, Small-Polar-MMV Screening Library” (2021), ChEMBL document CHEMBL3988442.

Mtb glucose medium: 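Growth of Mycobacterium tuberculosis over 3 days (7H9 medium with glucose and tyloxapol); the read-out is not stated. Tested at 500 µM. The record gives no direction; compounds that gave an IC50 in retests scored well above the rest, so higher reads as more growth inhibition. Of about 18,000 compounds tested this way, about 1,400 (7.9%) reached 50% or more in at least one test.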
Mtb cholesterol medium: 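Whole-cell growth test on Mycobacterium tuberculosis, read after 4 days in a medium based on cholesterol and the lipid DPPC; the read-out is not stated. Tested at 500 µM. Direction is inferred from retests: higher values go with more growth inhibition. About 18,000 compounds were tested under these conditions; 5% (about 900) showed 50% or more at least once.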

The filed quantity is “Percent Effect” (%). The controls that fix the scale are not given in the record; negative values are as filed. Many other results are left out here, so strong results are more common than in the screen.

For O=C(C1CCc2ccccc21)N1CCS(=O)(=O)CC1 (centres unmarked) the result was Mtb glucose medium: 9.931%. NCCNS(=O)(=O)c1ccc(-c2ccccc2)cc1 gave Mtb glucose medium: 82.09%; Mtb cholesterol medium: 78.57%. CC(CS(C)(=O)=O)NC(=O)c1ccc(C#N)cc1 (centres unmarked) read Mtb glucose medium: 2.907%. With CCC(CO)NC(=O)c1ccc(Cl)c(OC)c1 (centres unmarked) the screen gave Mtb glucose medium: -2.992%. With COc1ccc(CN(C)CC(N)=O)c(Br)c1OC the screen gave Mtb cholesterol medium: 18.49%. For Cc1cc(C(=O)NCC(=O)Nc2ccccc2Br)on1 the result was Mtb glucose medium: 35.28%. CSCCOC(=O)c1ccc2nncn2c1 read Mtb glucose medium: 18.22%; Mtb cholesterol medium: 1.886%. For COc1cc(OC)c(S(N)(=O)=O)c(OC)c1 the result was Mtb cholesterol medium: -17.18%.

NCC1CCN(c2ccncc2)CC1 gave Mtb cholesterol medium: -2.087%. Result for Cc1cc(C(=O)N2CC(N3CCOCC3)C2)ccc1O was Mtb glucose medium: 1.696%. Cc1ncncc1C(=O)NCC(C)(C)CN(C)C read Mtb cholesterol medium: 0.6288%. CCCS(=O)(=O)NCc1ccc(S(N)(=O)=O)cc1 read Mtb cholesterol medium: -12.37%. With COCCC(CO)NC(=O)c1cnn(C(C)C)c1C (centres unmarked) the screen gave Mtb glucose medium: 59.45%; Mtb cholesterol medium: 66.39%. With CN(C)CCC(O)c1ccccc1 (centres unmarked) the screen gave Mtb glucose medium: 22.33%; Mtb cholesterol medium: 1.523%. Cn1ccc(NC(=O)c2ccnn2C)n1 gave Mtb cholesterol medium: 23.26%. For CCN(CC1CCOC1)C(=O)CN(C)S(C)(=O)=O (centres unmarked) the result was Mtb cholesterol medium: -15.92%.

For Oc1ccc(CNc2cccc(-c3nnc[nH]3)c2)cc1 the result was Mtb glucose medium: 31.38%. With Cc1c(CNC(=O)COc2ccccc2)cnn1C the screen gave Mtb glucose medium: 32.77%; Mtb cholesterol medium: 19.59%. For CN(C)C(CCN)c1ccccc1 (centres unmarked) the result was Mtb glucose medium: 8.636%; Mtb cholesterol medium: 10.98%. Result for Clc1ccc(N2CCN(Cc3ncc[nH]3)CC2)nc1 was Mtb glucose medium: 65.88%; Mtb cholesterol medium: 22.62%. O=C(CN(Cc1cccs1)C1CC1)N1CCNC1=O read Mtb cholesterol medium: 4.023%. With CC1COCCN1S(=O)(=O)N1CCCCC1 (centres unmarked) the screen gave Mtb glucose medium: 1.569%. COCC(=O)Nc1cccc(C)c1C(=O)N1CCCC1 gave Mtb glucose medium: 9.751%. With CCN1CCC(NC(=O)c2ccccc2OC)CC1 the screen gave Mtb cholesterol medium: 14.2%.

COc1ccc(C)cc1CN1CCN(S(N)(=O)=O)CC1 gave Mtb glucose medium: 79.12%; Mtb cholesterol medium: 65.66%. COCc1cc(CNC(=O)c2sc(N)nc2C)n[nH]1 read Mtb glucose medium: 0.5694%. Cn1cncc1CCNC(=O)c1ccc(Cl)cn1 gave Mtb glucose medium: 40.92%; Mtb cholesterol medium: 25.83%. For CC1CN(CCC(=O)NCc2cccs2)CCCO1 (centres unmarked) the result was Mtb glucose medium: 19.55%; Mtb cholesterol medium: 76.74%. CC(NC(=O)CCCn1cncn1)c1cnn(C)c1 (centres unmarked) read Mtb glucose medium: 7.088%. Cc1nc2n(c1C)CCN(Cc1ncc(Cl)n1C)C2 gave Mtb cholesterol medium: -14.33%. For CC(C(=O)Nc1nc2c(s1)CCCC2)n1cncn1 (centres unmarked) the result was Mtb glucose medium: 5.101%. For CN(C)c1cc(CNc2ncnc3nc[nH]c23)ccn1 the result was Mtb glucose medium: 14.86%.

Cc1ccc(C(=O)NCCc2cncn2C)n1C read Mtb cholesterol medium: -7.228%. With NS(=O)(=O)NCCc1ccc(-n2cccn2)cc1 the screen gave Mtb glucose medium: 22.73%. With COCC(C)(C)NC(=O)Cc1cccc(O)c1 the screen gave Mtb cholesterol medium: 4.35%. CCN(Cc1c(OC)ccc(F)c1F)[C@H]1COC[C@@H]1O read Mtb glucose medium: 17.86%. Cc1c(Cl)c(C(F)F)nn1CC(=O)NCC1CCCO1 (centres unmarked) read Mtb cholesterol medium: 3.273%. Cc1ccnc(OC2CCNCC2)c1 gave Mtb glucose medium: 20.99%. CN(C)c1ccncc1N read Mtb cholesterol medium: 0.687%. Result for CN(CCOc1ccc(Cl)cc1)CCC(N)=O was Mtb glucose medium: 47.41%; Mtb cholesterol medium: 47.07%.

With CSc1nnc(NC(C)(C)C)s1 the screen gave Mtb glucose medium: 26.52%; Mtb cholesterol medium: 41.94%. Result for CN(C)CCNC(=O)c1ccc(CN)cc1 was Mtb glucose medium: 1.446%. COCCC1(CN2CCC(C(N)=O)C2)CCC1 (centres unmarked) gave Mtb glucose medium: -8.381%. Cc1nn(CCO)c(C)c1CNCC(=O)NC(C)(C)C gave Mtb cholesterol medium: 2.608%.

Some entries from above, unchanged:

* O=C(CN(Cc1cccs1)C1CC1)N1CCNC1=O | Mtb cholesterol medium: 4.023%
* Cc1ncncc1C(=O)NCC(C)(C)CN(C)C | Mtb cholesterol medium: 0.6288%
* CN(C)C(CCN)c1ccccc1 (centres unmarked) | Mtb glucose medium: 8.636%; Mtb cholesterol medium: 10.98%